{"sequences": {"note": "Protein sequences, listed by entry. Tags and fused reporters are not part of them.", "UniProt Q14524, whole entry, looked up": "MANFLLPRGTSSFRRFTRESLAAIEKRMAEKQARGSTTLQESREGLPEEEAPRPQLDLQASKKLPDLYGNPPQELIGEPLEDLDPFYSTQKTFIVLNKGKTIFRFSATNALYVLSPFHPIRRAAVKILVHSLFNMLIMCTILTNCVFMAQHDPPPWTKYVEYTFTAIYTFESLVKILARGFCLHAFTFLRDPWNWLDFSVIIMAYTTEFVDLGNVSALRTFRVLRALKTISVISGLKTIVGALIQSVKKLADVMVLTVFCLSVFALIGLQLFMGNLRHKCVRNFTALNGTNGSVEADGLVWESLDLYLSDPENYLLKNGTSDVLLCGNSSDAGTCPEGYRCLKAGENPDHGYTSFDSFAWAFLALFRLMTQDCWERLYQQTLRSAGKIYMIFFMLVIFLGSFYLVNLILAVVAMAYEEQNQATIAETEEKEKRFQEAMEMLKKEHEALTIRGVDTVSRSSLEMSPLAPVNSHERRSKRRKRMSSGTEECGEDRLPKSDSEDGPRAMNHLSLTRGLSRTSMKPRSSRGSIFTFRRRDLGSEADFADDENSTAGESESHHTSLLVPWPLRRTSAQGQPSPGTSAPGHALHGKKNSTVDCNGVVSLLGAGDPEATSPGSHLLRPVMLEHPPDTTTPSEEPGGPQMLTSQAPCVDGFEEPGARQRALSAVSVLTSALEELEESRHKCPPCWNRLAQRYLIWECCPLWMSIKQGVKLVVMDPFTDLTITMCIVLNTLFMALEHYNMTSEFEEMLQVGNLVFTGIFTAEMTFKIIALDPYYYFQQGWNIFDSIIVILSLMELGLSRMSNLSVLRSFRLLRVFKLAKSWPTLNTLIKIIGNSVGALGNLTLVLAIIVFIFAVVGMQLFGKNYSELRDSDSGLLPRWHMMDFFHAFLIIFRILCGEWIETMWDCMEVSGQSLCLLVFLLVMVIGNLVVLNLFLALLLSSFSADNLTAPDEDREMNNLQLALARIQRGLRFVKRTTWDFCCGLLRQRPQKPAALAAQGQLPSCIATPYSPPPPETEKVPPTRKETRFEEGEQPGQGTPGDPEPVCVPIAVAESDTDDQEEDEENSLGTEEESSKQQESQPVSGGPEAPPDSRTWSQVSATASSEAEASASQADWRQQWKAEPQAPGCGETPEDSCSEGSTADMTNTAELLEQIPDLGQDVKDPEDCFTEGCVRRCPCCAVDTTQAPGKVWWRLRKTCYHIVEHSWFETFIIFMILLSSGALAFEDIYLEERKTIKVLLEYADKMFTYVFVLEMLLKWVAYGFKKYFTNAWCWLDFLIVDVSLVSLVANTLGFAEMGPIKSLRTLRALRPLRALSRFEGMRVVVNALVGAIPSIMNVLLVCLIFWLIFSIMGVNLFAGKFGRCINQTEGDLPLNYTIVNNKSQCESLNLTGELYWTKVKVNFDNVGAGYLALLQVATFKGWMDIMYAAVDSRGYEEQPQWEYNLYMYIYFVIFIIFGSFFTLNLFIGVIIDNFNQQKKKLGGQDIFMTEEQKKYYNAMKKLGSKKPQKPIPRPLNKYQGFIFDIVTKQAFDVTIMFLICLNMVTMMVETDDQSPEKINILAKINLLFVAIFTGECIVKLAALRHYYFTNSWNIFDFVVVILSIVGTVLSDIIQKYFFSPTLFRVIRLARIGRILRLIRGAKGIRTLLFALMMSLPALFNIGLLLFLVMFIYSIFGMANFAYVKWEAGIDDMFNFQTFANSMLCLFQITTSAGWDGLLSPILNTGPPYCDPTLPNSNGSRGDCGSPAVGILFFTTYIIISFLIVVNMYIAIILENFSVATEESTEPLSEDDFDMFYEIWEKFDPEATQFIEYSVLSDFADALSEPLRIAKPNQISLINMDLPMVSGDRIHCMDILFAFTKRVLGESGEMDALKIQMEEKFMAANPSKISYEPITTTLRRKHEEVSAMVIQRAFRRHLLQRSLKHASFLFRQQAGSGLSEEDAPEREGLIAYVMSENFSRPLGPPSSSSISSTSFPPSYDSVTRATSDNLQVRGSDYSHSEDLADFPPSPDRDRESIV", "UniProt Q99250, whole entry, looked up": "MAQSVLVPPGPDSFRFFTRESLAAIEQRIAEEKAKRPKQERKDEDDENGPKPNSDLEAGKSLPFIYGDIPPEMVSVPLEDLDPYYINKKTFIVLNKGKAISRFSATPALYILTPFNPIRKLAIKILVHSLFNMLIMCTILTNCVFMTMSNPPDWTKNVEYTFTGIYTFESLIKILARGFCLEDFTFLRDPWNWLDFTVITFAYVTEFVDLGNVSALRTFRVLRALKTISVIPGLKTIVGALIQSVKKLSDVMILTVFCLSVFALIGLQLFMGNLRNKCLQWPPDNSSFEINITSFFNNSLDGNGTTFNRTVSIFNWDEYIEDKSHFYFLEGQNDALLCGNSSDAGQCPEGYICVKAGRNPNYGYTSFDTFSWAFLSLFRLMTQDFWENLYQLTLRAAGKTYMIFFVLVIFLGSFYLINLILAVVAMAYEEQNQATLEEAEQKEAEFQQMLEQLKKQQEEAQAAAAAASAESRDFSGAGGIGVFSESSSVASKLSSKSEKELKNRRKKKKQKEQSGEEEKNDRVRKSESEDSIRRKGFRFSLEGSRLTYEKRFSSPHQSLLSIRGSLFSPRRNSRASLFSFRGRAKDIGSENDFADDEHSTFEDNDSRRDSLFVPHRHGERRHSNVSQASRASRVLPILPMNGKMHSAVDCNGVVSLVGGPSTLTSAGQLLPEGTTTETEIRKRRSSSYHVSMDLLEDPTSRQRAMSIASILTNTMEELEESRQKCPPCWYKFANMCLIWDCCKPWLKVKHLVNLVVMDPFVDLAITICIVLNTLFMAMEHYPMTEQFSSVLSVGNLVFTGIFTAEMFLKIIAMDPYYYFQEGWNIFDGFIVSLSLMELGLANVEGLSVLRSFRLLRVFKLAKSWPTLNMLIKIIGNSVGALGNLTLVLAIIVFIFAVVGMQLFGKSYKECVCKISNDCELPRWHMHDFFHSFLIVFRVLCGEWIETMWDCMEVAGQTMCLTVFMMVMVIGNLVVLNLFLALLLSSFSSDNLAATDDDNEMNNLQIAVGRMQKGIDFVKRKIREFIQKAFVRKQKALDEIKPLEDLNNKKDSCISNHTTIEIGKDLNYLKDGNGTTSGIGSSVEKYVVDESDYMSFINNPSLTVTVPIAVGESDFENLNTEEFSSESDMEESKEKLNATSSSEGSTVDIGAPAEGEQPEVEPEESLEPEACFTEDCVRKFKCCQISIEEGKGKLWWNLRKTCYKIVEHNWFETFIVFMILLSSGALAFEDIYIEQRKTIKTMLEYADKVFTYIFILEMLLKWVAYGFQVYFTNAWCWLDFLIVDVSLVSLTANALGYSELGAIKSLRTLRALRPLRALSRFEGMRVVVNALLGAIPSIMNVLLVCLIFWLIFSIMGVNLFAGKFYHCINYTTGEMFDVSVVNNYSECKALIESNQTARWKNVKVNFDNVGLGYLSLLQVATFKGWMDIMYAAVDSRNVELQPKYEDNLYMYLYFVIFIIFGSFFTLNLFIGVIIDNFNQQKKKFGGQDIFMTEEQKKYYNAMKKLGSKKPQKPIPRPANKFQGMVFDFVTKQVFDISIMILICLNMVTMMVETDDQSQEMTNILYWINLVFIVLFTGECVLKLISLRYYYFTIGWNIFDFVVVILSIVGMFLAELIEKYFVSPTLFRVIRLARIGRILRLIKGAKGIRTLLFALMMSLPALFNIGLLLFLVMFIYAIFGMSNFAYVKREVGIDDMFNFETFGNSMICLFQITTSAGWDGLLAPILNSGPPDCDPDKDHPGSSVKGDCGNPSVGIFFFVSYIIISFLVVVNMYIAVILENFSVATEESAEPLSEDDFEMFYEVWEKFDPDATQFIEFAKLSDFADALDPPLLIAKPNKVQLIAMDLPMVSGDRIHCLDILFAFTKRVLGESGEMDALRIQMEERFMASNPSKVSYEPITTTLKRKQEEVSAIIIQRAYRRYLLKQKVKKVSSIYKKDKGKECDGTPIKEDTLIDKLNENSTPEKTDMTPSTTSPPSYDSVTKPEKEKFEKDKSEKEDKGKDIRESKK", "UniProt Q15858, whole entry, looked up": "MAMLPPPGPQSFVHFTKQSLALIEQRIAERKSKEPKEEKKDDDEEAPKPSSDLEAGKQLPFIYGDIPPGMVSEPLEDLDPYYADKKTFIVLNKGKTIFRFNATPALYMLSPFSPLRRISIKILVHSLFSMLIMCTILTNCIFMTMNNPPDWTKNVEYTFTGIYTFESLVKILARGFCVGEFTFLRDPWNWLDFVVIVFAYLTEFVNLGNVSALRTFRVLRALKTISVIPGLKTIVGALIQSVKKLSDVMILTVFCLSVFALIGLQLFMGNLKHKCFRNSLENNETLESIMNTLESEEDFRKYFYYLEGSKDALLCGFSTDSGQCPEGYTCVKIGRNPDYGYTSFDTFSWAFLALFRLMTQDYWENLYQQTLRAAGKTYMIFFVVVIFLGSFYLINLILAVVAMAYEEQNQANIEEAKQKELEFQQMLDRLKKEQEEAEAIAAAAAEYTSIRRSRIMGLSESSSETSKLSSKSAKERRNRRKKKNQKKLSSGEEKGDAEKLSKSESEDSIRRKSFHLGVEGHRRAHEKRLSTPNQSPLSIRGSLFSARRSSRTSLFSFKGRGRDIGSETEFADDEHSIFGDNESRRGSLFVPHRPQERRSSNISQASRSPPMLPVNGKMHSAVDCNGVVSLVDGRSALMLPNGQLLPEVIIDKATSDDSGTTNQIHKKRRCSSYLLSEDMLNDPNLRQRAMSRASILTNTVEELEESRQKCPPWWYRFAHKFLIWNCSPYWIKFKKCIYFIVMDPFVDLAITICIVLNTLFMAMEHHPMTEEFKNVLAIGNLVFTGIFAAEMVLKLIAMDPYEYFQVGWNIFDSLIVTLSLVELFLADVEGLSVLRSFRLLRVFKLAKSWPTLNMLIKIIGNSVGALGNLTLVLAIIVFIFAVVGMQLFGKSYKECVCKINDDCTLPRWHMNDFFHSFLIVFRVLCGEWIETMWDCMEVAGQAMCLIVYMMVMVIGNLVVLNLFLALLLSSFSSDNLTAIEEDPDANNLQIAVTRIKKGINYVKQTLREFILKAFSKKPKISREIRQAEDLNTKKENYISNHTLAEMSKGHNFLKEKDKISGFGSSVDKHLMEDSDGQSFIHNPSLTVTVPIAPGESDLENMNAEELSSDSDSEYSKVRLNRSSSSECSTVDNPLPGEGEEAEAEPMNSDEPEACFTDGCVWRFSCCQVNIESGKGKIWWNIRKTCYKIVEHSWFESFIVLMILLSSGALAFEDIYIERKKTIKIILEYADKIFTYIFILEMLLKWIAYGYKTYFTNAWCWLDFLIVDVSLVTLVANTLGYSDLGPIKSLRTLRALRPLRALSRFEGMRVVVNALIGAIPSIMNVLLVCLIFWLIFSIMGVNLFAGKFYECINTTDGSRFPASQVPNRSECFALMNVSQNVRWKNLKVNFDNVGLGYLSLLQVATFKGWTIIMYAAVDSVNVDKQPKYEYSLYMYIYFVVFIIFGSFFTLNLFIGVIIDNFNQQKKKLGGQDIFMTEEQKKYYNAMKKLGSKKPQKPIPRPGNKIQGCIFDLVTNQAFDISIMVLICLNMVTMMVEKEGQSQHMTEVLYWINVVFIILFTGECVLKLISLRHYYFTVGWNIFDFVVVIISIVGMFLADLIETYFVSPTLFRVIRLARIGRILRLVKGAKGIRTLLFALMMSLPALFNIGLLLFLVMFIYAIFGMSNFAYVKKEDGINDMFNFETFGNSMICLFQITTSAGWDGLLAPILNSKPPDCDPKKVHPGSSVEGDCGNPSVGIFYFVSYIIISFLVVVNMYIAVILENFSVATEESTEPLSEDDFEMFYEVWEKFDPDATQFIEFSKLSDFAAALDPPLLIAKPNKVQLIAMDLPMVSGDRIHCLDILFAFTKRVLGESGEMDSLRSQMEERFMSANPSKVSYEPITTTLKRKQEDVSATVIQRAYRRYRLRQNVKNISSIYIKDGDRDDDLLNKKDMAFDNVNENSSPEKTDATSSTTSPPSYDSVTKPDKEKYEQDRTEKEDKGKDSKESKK"}, "source": "patent US20250241837A1", "about": "“MODIFIED CONE SNAIL POLYPEPTIDE, PREPARATION METHOD AND USE THEREOF” (published 2025)", "key": {"[1]": {"assay": "Isoelectric point as stated in the description", "conditions": "method not given"}, "[2]": {"tested_on": "human skin fibroblasts HFF-1", "assay": "MTT cytotoxicity test on human skin fibroblasts HFF-1", "conditions": "HFF-1 cells, 24 h"}, "Nav1.4": {"tested_on": "Nav1.4", "conditions": "100 nM"}, "Nav1.5": {"biological_target": "Nav1.5 (Homo sapiens, UniProt Q14524)", "assay": "Electrophysiological recording of the voltage-gated sodium channel, Nav1.5", "conditions": "100 nM"}, "Nav1.2": {"biological_target": "Nav1.2 (Homo sapiens, UniProt Q99250)", "assay": "Electrophysiological recording of the voltage-gated sodium channel, Nav1.2", "conditions": "100 nM"}, "Nav1.7": {"biological_target": "Nav1.7 (Homo sapiens, UniProt Q15858)", "assay": "Electrophysiological recording of the voltage-gated sodium channel, Nav1.7", "conditions": "100 nM"}, "[3]": {"assay": "Isoelectric point by isoelectric focused electrophoresis", "conditions": "purified polypeptide"}, "[4]": {"tested_on": "wrinkles caused by UVB irradiation", "assay": "Anti-wrinkle effect on wrinkles caused by UVB irradiation in mice", "conditions": "UVB-irradiated mice, score 0-6"}}}
{"smiles": "CC[C@H](C)[C@H](NC(=O)[C@H](C)NC(=O)[C@H](CC(N)=O)NC(C)=O)C(=O)N[C@H]1CSSC[C@@H]2NC(=O)[C@H](CC(N)=O)NC(=O)[C@H](CCCNC(=N)N)NC(=O)[C@H](CO)NC(=O)[C@H](C)NC(=O)[C@@H]3CSSC[C@@H](C(=O)O)NC(=O)[C@H](CSSC[C@H](NC1=O)C(=O)NCC(=O)N[C@@H](Cc1ccccc1)C(=O)N1CCC[C@H]1C(=O)N[C@@H](CCCNC(=N)N)C(=O)N[C@@H](CO)C(=O)N3)NC(=O)[C@H](CCCNC(=N)N)NC(=O)[C@H](Cc1c[nH]cn1)NC(=O)[C@@H]1CCCN1C(=O)[C@H](CCCNC(=N)N)NC2=O", "values": [{"measurement": "isoelectric point", "setting": "[1]", "result": 9.01}, {"measurement": "Cytotoxicity %", "setting": "[2]; concentration 1 g/ml as printed in head", "result": 0.00, "unit": "%"}, {"measurement": "Cytotoxicity %", "setting": "[2]; concentration 50 g/ml as printed in head", "result": "1.25 ± 0.32", "unit": "%"}, {"measurement": "Cytotoxicity %", "setting": "[2]; concentration 200 g/ml as printed in head (200 μg/ml in text)", "result": 2.67, "unit": "%"}, {"measurement": "electrical conduction in the muscle retained", "setting": "Nav1.4", "result": "about 10%"}, {"measurement": "inhibition of the current in Nav1.4", "setting": "Nav1.4", "result": "about 90%"}, {"measurement": "activity on Nav1.5", "setting": "Nav1.5", "result": "virtually inactive"}, {"measurement": "activity on Nav1.2", "setting": "Nav1.2", "result": "virtually inactive"}, {"measurement": "activity on Nav1.7", "setting": "Nav1.7", "result": "virtually inactive"}, {"measurement": "isoelectric point", "setting": "[3]", "result": 9.01}, {"measurement": "content range of each sample relative to the theoretical content", "setting": "in lanolin, theoretical content 1 mg/g", "result": "≤ 90", "unit": "%"}, {"measurement": "average content of the polypeptide in 20 samples", "setting": "in lanolin, theoretical content 1 mg/g, 20 samples", "result": "0.90 ± 0.05", "unit": "mg/g"}, {"measurement": "dispersion in the lipid environment", "setting": "lanolin", "result": "good dispersion"}, {"measurement": "Wrinkle score at week 6", "setting": "[4]; 10 ng/mouse topical daily", "result": "1.16 ··"}, {"measurement": "Wrinkle score at week 9", "setting": "[4]; 10 ng/mouse topical daily", "result": "1.47 ··"}, {"measurement": "Wrinkle score at week 6", "setting": "[4]; 100 ng/mouse topical daily", "result": "2.42 ··"}, {"measurement": "Wrinkle score at week 9", "setting": "[4]; 100 ng/mouse topical daily", "result": "2.68 ··"}]}
